Results on one molecule are retold here after publication PMC7459591 (Marine Drugs, 2020).

The chains behind the UniProt entries cited, without tags or fusion partners.
UniProt P22001, whole entry: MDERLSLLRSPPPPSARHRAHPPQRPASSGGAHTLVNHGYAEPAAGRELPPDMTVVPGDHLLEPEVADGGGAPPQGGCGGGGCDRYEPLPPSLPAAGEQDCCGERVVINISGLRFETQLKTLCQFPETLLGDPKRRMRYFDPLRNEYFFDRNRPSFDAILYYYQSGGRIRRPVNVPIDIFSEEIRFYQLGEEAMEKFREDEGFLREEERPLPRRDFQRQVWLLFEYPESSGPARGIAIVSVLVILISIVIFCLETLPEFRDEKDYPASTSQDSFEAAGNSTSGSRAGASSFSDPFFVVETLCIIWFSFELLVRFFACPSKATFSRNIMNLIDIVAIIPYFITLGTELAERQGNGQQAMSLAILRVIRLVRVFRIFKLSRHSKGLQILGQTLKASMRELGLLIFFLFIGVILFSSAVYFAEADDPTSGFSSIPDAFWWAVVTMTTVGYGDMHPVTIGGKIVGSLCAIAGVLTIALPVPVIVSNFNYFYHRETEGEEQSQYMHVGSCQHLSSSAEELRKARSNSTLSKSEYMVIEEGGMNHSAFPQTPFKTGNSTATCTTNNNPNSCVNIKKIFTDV
UniProt P17658, whole entry: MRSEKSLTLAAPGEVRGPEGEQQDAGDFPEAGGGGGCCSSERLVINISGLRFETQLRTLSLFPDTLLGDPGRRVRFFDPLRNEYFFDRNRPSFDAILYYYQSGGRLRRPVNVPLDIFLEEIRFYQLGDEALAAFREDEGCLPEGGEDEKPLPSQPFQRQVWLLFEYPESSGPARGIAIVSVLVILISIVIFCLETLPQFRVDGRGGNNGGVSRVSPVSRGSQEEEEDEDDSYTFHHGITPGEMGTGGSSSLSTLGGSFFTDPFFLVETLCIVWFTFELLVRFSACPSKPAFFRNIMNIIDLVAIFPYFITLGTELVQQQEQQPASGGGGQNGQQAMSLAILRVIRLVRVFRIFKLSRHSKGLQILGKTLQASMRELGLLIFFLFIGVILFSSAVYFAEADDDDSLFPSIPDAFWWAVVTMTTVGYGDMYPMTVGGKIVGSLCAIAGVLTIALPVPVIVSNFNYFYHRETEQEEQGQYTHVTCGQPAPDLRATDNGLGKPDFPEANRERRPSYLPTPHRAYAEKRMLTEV

Values joined by “and” are separate entries in the source; they are usually repeats but may differ in a detail not shown here. Equal values may be shown once. Some compounds may have been tested in ways that are not shown here.

For one series, the system named is hEag K^+ channel. The conditions noted are these: cited from earlier work.
In another series the test system is Shaker K^+ channel. The following applies: read-out: Kd on Shaker channel, sentence has no own ref, ref 1 is cited for CNF-Sr3 on Shaker; cited from earlier work.
In another series the test system is human Kv1.5 channel. Nature of the series: Two-electrode voltage clamp of Kv1.5 expressed in Xenopus oocytes. The conditions noted are these: 10 µM. On the procedure: (§1) cDNA of the clones for human Kv1.3 to Kv1.6 channels in vector pSGEM, resistant to ampicillin, were linearized with NotI and SpHI. Then, the products were purified using a QIAquick PCR purification Kit according the protocol by Qiagen (Hilden, Germany). cDNAs were transcribed in vitro with the T7 polymerase (mMessage mMachine Kit; Ambion Inc., Austin, TX, USA). cRNA was purified using a Qiagen RNeasy kit (Hilden, Germany). Five nanograms of cRNA was injected into each oocyte and used for voltage-clamp recording 1–2 days after injection. Sexually mature Xenopus leavis female frogs were kept and handled according to the institutional bioethics committee requirements. Whole-cell currents were recorded under two-electrode voltage clamp control using an OC-725C clamp amplifier (Warner Instruments, CT, USA). The intracellular electrodes were filled with 3 M KCl. Potassium currents were generated by de-polarizations to 10 mV for 1 s every 20 s with a membrane potential held at -80 mV. The bath solution was ND96, consisting of 96 mM NaCl, 2.0 mM KCl, 1.8 mM CaCl2, 1.0 mM MgCl2, and 5 mM HEPES (pH 7.5). CNF-Sr3 was diluted in ND96 and directly applied (3 μL) to the (static) bath chamber (30 μL). All electrophysiological measurements were performed at room temperature (~22 °C).
(§2) Measurements are reported as the mean ± SEM of three independent experiments.

A further series addresses human Kv1.3 channel (Homo sapiens, UniProt P22001). Nature of the series: Two-electrode voltage clamp of Kv1.3 expressed in Xenopus oocytes. On the procedure:
as §1, §2
A general note: Two-electrode voltage clamp is typically applied to oocytes expressing channels or transporters.

A further series concerns human Kv1.4 channel. Nature of the series: Two-electrode voltage clamp of Kv1.4 expressed in Xenopus oocytes. The following applies: 10 µM. As for the experimental part:
as §1, §2

In the next series the test system is skinned Xenopus oocytes. The conditions noted are these: cited from earlier work.
A further series addresses human Kv1.6 channel (Homo sapiens, UniProt P17658). Nature of the series: Two-electrode voltage clamp of Kv1.6 expressed in Xenopus oocytes. As for the experimental part: as §1, §2
In the next series the test system is Eag. The conditions noted are these: cited from earlier work.

In general, Kd refers to a measure of binding affinity in units of concentration.

Consider `CSCC[C@H](NC(=O)[C@@H]1CCCN1C(=O)CNC(=O)[C@H](CO)NC(=O)[C@@H](NC(=O)[C@H](C)N)[C@@H](C)O)C(=O)NCC(=O)N[C@@H](Cc1c[nH]c2ccccc12)C(=O)N[C@@H](CC(C)C)C(=O)N1CCC[C@H]1C(=O)N[C@H](C(=O)N[C@@H](Cc1ccccc1)C(=O)N[C@@H](Cc1ccc(O)cc1)C(=O)N[C@@H](CCCNC(=N)N)C(=O)N[C@@H](Cc1ccccc1)C(N)=O)C(C)C` [CNF-Sr3, Conorfamide-Sr3], for which, in the series on hEag K^+ channel, the “Effect on hEag K^+ channel” value was “no activity”. For the same molecule, the Kd with Shaker K^+ channel was 2700 nM. For the same molecule, the “Effect on Kv1.5” value in the series on human Kv1.5 channel is listed as “no significant effect”. Besides, the “Inhibition of current, Kv1.3” value at human Kv1.3 channel (30 µM) is given as “almost all the current was inhibited irreversibly”. Besides, on human Kv1.3 channel (concentration-response fit), the “Hill equation n, Kv1.3” value came to 2.1. For the same molecule, the “Time to block the current, Kv1.3 compared with Kv1.6” value on human Kv1.3 channel (time course of inhibition, Kv1.3 than Kv1.6) is “takes twice as much to block the current for Kv1.3 than Kv1.6”. In addition, the “Effect on Kv1.4” value in the series on human Kv1.4 channel was “no significant effect”. Besides, in the series with skinned Xenopus oocytes, the “Leak current” value is recorded as “does not induce a leak current”. At human Kv1.6 channel (30 µM), the “Inhibition of current, Kv1.6” value is recorded as “almost all the current was inhibited irreversibly”. The “Affinity ratio Kv1.6 over Kv1.3” value on human Kv1.6 channel (Kv1.6 with respect to Kv1.3, from IC50) was 10 fold and ~ 10 fold. Further, on human Kv1.6 channel (concentration-response fit), the “Hill equation n, Kv1.6” value is given as 1.08. Moreover, the “Effect on Eag” value in the series on Eag is “not to have any significant effect”.
